Experimental data from ChEMBL document CHEMBL2321648, “Structure-based discovery of pyrazolobenzothiazine derivatives as inhibitors of hepatitis C virus replication” (J Med Chem, 2013).

Assay: Cytotoxicity against human HuH5.2 cells by MTS assay
Format: cell-based, Huh-5-2
Settings: HuH5.2 cells
In short: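 Huh 5-2 replicon cells run in parallel with the antiviral assay: 72 h compound exposure at 37 °C, then 5% MTS in phenol red-free medium for 1.5 h. Absorbance at 498 nm expressed as % of untreated controls. CC50 taken from the dose-response curve, means ± SD of at least three independent experiments.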
In the case of CS(=O)(=O)Nc1ccc(NC(=O)c2nn(-c3ccc([N+](=O)[O-])cc3)c3c2NS(=O)(=O)c2ccccc2-3)cc1, the CC50 is reported as 55 µM.

Same assay, conditions: huh-5-2
Work on CN1c2c(C(=O)Nc3ccc(NS(C)(=O)=O)cc3)nn(-c3cccc(N)c3)c2-c2ccccc2S1(=O)=O yielded a CC50 of 20 µM. Work on CN1c2c(C(=O)Nc3ccc(NS(C)(=O)=O)cc3)nn(-c3ccccc3N)c2-c2ccccc2S1(=O)=O yielded a CC50 greater than 232 µM. CN1c2c(C(=O)Nc3ccc(NS(C)(=O)=O)cc3)nn(-c3ccc(N)cc3)c2-c2ccccc2S1(=O)=O gave a CC50 of 25 µM. CN1c2c(C(=O)Nc3ccc(N)cc3)nn(-c3cccc(F)c3)c2-c2ccccc2S1(=O)=O showed a CC50 greater than 270 µM. For CN1c2c(C(=O)Oc3ccc(NS(C)(=O)=O)cc3)nn(-c3cccc(F)c3)c2-c2ccccc2S1(=O)=O, the CC50 was greater than 185 µM. Work on COC(=O)c1nn(-c2cccc(F)c2)c2c1N(C)S(=O)(=O)c1ccccc1-2 yielded a CC50 greater than 323 µM. With CN1c2c(C(=O)Nc3ccc(NS(C)(=O)=O)cc3)nn(-c3cccc(F)c3)c2-c2ccccc2S1(=O)=O the CC50 was greater than 370 µM. Work on CN1c2c(C(=O)Nc3ccc(NS(C)(=O)=O)cc3)nn(-c3ccccc3F)c2-c2ccccc2S1(=O)=O yielded a CC50 greater than 231 µM. Molecule CN1c2c(C(=O)Nc3ccc(NS(C)(=O)=O)cc3)nn(-c3ccc(F)cc3)c2-c2ccccc2S1(=O)=O has a CC50 greater than 231 µM.

Settings: human
Molecule CN1c2c(C(=O)Nc3ccc(NS(C)(=O)=O)cc3)nn(-c3cccc(F)c3)c2-c2ccccc2S1(=O)=O has a CC50 greater than 180 µM.
